Values of other authors in patent publication US4340539A, “Derivatives of 6-bromo penicillanic acid” (priority 1980, dated 1982).

Tested on: M. pyogenes aureus 209P
Settings: cited from earlier work

SMILES | microbiological activity
CC1(C)SC2C(Br)C(=O)N2[C@H]1C(=O)O (some centres unmarked) | devoid of microbiological activity
CC1(C)S[C@@H]2C(Cl)C(=O)N2[C@H]1C(=O)O (some centres unmarked) | devoid of microbiological activity
